From ChEMBL document CHEMBL1142558, “A new polyether ladder compound produced by the dinoflagellate Karenia brevis” (J Nat Prod, 2005)

System: Gambusia affinis
Experiment: Toxicity against Gambusia affinis assessed as mortality at 1 ug/ml after 7.5 min
Conditions: in vivo, 0.125 h

For `C=C(C=O)C[C@@H]1C[C@H](O)[C@]2(C)O[C@@H]3C[C@@H]4O[C@@H]5C[C@]6(C)O[C@]7(C)CC[C@@H]8O[C@@H]9C[C@]%10(C)O[C@@H]%11C(C)=CC(=O)O[C@H]%11C[C@H]%10O[C@H]9C[C@@H](C)[C@H]8O[C@H]7C[C@H]6O[C@@]5(C)C/C=C\[C@H]4O[C@H]3C[C@H]2O1` [BREVETOXIN B], the Activity was 100%.
